For assay [1], the system named is A431 tumor (human epidermal carcinoma xenograft). Description: A431 xenograft mouse tumor model, tumor volume. The class given is in vivo, Balb/c nude mice. The protocol: Female Balb/c nude mice were injected subcutaneously with a suspension of human A431 tumor cells. Under the skin of the mice, a human epidermal carcinoma developed in the xenograft animal tumor model. After injection of the tumor cells, the xenograft tumor was allowed to develop to a size of approximately 170-180 mm^3. The A431 tumor cells have the following characteristics: high EGFR expressors, medium CD71 expressors, low HER2 expressors.
In Table A, the results of the treatment of control mice and tumor-bearing mice are presented. Tumor-bearing mice were treated with the indicated antibodies directed to either human Her2/neu, human EGFR, or human CD71, which are cell-surface receptors on the xenograft tumor. Cetuximab was covalently conjugated with saponin SO1861. […] The ADCs trastuzumab-saporin (covalent conjugate) and anti-0071 mAb (OKT-9, IgG)—saporin (covalent conjugate) were tested for their tumor-attacking efficacy in the mice, measured as tumor volume in time after start of the treatment with the ADCs. The dose of the ADCs was sub-optimal in the tumor model. […]
The mouse study was performed at CrownBio (China) according to standard protocols and procedures. […] Tumor volume was monitored and tumor samples were collected for gene silencing analysis (see below)

The next assay concerns SK-BR-3 cells (HER2++). As to the kind of experiment: Cell viability (MTS) assay, SK-BR-3 cells. The class given is cell-based, human. To be noted: substance alone (control).

As to “Cetuximab-SO1861 (covalent conjugate): saponin-EMCH covalently coupled to reduced cysteines of Cetuximab”, the “outcome (death/euthanasia or survival)” value in assay [1] (Table A) is recorded as “death/euthanasia”. Further, in assay [1] (sub-optimal dose of the ADCs, start approximately 170-180 mm^3), the “tumor size (volume)” value is reported as 2000 mm^3. For the substance “trastuzumab-(L-SO1861)^3,8: trastuzumab with labile conjugated SO1861, DAR 3,8”, the cell killing activity entry with SK-BR-3 cells (HER2++) is “not observed”.

The values above are taken from patent publication US20250195682A1, “IMPROVED CELL-TARGETING BINDING MOLECULE” (priority 2018, published 2025).
